Compound potency records, mixed from different reports. Data source: NIAID ChemDB in PubChem.

Shared fields: growth or infection tests; agent: HIV-1; method: p24; read-out: EC50

ECn: concentration that inhibits the pathogen or its effect by n%. Rows are shuffled and stem from different studies. An empty or dashed field is not shown.

SMILES,changes,cells,strain,result
Nc1nccc2c1ncn2[C@@H]1O[C@H](CO)[C@@H](O)[C@H]1O,,PBMC,18431 unpaired,0.0069 µM
C=C1CN(S(=O)(=O)c2ccc(C)cc2)CCCN(C(=O)OCCC)CCCN(S(=O)(=O)c2ccc(C)cc2)C1,,MT-4,NL4-3,2.6 µM
Nc1nccc2c1ncn2[C@@H]1C=C(CO)[C@@H](O)[C@H]1O,,H9,MN,0.001 µM
CSCC[C@H](NC(=O)[C@H](CCO)N(Cc1ccccc1)C(=O)[C@H](CC(C)C)NC(=O)OCC1c2ccccc2-c2ccccc21)C(=O)NC(C)(C)C,,CEM + CEM-SS,IIIB,0.052 µM
CCSc1cc(N2CC[C@@H](NC(C)=O)C2)c2nc(C)c(-c3ccc(OC)c(OC)c3)n2n1,,H9,,1 µM
Cc1cn([C@H]2C[C@H](N=[N+]=[N-])[C@@H](CO)O2)c(=O)[nH]c1=O,,C8166,IIIB,0.00194 µg/mL
NC(=O)NO,,H9,,<200 µM
C=C1CN(S(=O)(=O)c2ccc(C)cc2)CCCN(CC2CC=CCC2)CCCN(S(=O)(=O)c2ccc(C)cc2)C1,,MT-4,NL4-3,0.6 µM
CC(C)=CCOc1cc(NC(=S)c2ccoc2C)ccc1Cl,RT-D67N K70R L100I T215Y K219Q,CEM + CEM-SS,4XAZT+L100I (RT D67N K70R L100I T215Y K219Q),0.2 µM
CCCCCCCCCCCCCCCC(=O)NC1C(COP(=O)(O)OC2C(O)C(COP(=O)(O)OC3CC(CO)OC3n3cnc4c(N)ncnc43)OC2n2cnc3c(N)ncnc32)OC(n2cnc3c(N)ncnc32)C1O,,,,>300 µM
C=C1CN(S(=O)(=O)c2ccc(C)cc2)CCCN(CC(C)CC)CCCN(S(=O)(=O)c2ccc(C)cc2)C1,,MT-4,NL4-3,0.98 µM
C[S+](CC[C@H](N)C(=O)[O-])C[C@H]1O[C@@H](n2cnc3c(N)ncnc32)[C@H](O)[C@@H]1O,,PBMC,IIIB,<100 µg/mL
CCN1c2ncc(CCOc3ccc(/C=C(\C)C(=O)O)c4ccccc34)cc2C(=O)N(C)c2ccc(Cl)nc21,,C8166,WT,<0.1 µM
Cc1cc(=O)oc2c3c(c(CN)cc12)OC(C)(C)[C@H](OC(=O)C12CCC(C)(C(=O)O1)C2(C)C)[C@@H]3OC(=O)C12CCC(C)(C(=O)O1)C2(C)C,,PBMC,IIIB,0.001 µg/mL
O=C(O)/C=C/c1ccc2c(c1)c(=O)c(/C(O)=C/C(=O)C(=O)O)cn2Cc1ccc(F)cc1,,TZM-bl,NL4-3,5 µM
O=S1CCCCS1,,CEM + CEM-SS,RF,>26 µM
C=C1CN(S(=O)(=O)c2ccc(C)cc2)CCCN(Cc2cccnc2)CCCN(S(=O)(=O)c2ccc(C)cc2)C1,,MT-4,NL4-3,5.6 µM
C=Cc1c(C)c2cc3[nH]c(cc4nc(cc5nc(cc1[nH]2)C(C)=C5CCC(=O)O)C(CCC(=O)O)=C4C)c(C)c3C=C,,MT-2,,2.17 µM
O=C1c2c(O)c(=O)n(CC3COCCN3Cc3ccccc3)c(=O)n2CCN1Cc1ccc(F)cc1,,MT-4,,<10 µM
COc1ccc(-n2cnc3c(N4CC[C@@H](NC(C)=O)C4)nc(C)nc32)cc1OC,,H9,RF,>100 µM
COc1cc([N+](=O)[O-])c(S(=O)(=O)[O-])cc1N=N/C(=N\Nc1cc(S(=O)(=O)[O-])c([N+](=O)[O-])cc1OC)C(=O)Nc1ccccc1,,MT-2,SF2 R5X4,22.64 µM
CSCC[C@H](NC(=O)[C@H](CO)N(Cc1ccccc1)C(=O)[C@H](CC(C)C)NC(=O)OCc1ccccc1)C(=O)NC(C)(C)C,,CEM + CEM-SS,IIIB,0.543 µM
COc1ccc(-c2c(C)nc3c(N4CC=CC4)cc(C)nn23)cc1OC,,H9,,1 µM
C=C1CN(S(=O)(=O)c2ccc(Br)cc2)CCCN(Cc2ccccc2)CCCN(S(=O)(=O)c2ccc(Br)cc2)C1,,MT-4,NL4-3,1.84 µM
Nc1nc(NC2CC2)c2ncn([C@H]3C=C[C@@H](CO)C3)c2n1,,PBMC,KAB Clinical isolate,>0.25 µM
C=C(C)OC(=O)N1c2cc(Cl)ccc2NC(=S)C1(C)C,,PBL,D34,0.003 µM
Cc1cc(=O)oc2c3c(c(CBr)cc12)OC(C)(C)[C@H](OC(=O)C12CCC(C)(C(=O)O1)C2(C)C)[C@@H]3OC(=O)C12CCC(C)(C(=O)O1)C2(C)C,,PBMC,IIIB,0.025 µg/mL
COc1ccc(-c2scc3c(N4CC[C@@H](NC(C)=O)C4)nc(C)nc23)cc1OC,,H9,,>100 µM
CCN1c2ncc(CCOc3ccc(C(=O)O)c4c3CCCC4)cc2C(=O)N(C)c2ccc(Cl)nc21,RT-K103N Y181C,C8166,,<0.1 µM
CCCCCCCC/C=C\CCCCCCCOCCCOP(=O)(O)CO[C@H](CO)Cn1cnc2c(N)ncnc21,RT,MT-2,LAI,0.107 µM
O=C(CN1CCOCC1)N1CCC(n2c(=O)c(O)c3n(c2=O)CCN(Cc2ccc(F)cc2)C3=O)CC1,,MT-4,,<10 µM
COc1ccc(-c2c(C)nc3c(N4CCN(C(C)=O)CC4)cc(C)nn23)cc1OC,,H9,,>1 µM
CC(C)CN(C[C@@H](O)[C@H](Cc1ccccc1)NC(=O)O[C@H]1CCOC1)S(=O)(=O)c1ccc(N)cc1,,CEM,IIIB,0.177 µM
CCN1c2ncc(CCOc3ccc(CCC(=O)O)c4c3CCCC4)cc2C(=O)N(C)c2cccnc21,,C8166,WT,<0.1 µM
CC(C)(C)NC(=O)[C@@H]1CCCN1C(=O)[C@@H](O)[C@H](Cc1ccccc1)NC(=O)[C@H](CC(N)=O)NC(=O)OCc1ccccc1,,MOLT-4,C-3,~10 µM
OCCC#Cc1nc(-c2ccc(F)cc2)c(-c2ccncc2)n1CCCc1ccccc1,,PBMC,BaL,<1 µM
C=C1CN(S(=O)(=O)c2ccc(C)cc2)CCCN(Cc2ccccc2)CCCN(S(=O)(=O)c2ccc(C)cc2)C1,,MT-4,NL4-3,0.7 µg/mL
C=C1CN(S(=O)(=O)c2ccc(C)cc2)CCCN(C2CCCC2)CCCN(S(=O)(=O)c2ccc(C)cc2)C1,,MT-4,NL4-3,6.39 µM
C=C(C)[C@@H]1CC[C@]2(CO)CC[C@]3(C)[C@H](CC[C@@H]4[C@@]5(C)CC[C@H](OC(=O)CCC(=O)O)C(C)(C)[C@@H]5CC[C@]43C)[C@@H]12,,H9,IIIB,>100 µg/mL
CCN1c2ncc(CCOc3ccc(C(=O)O)c4c3CCN(C(=O)N(C)C)C4)cc2C(=O)N(C)c2cccnc21,,C8166,WT,<0.1 µM
Cc1ccc(C)c(CS(=O)c2ccc(Cl)c[n+]2[O-])c1,,CEM,IIIB,~20 µg/mL
COc1ccc(-c2c(C)sc3c(N4CC[C@@H](NC(C)=O)C4)nc(Cl)nc23)cc1OC,,H9,,>100 µM
Nc1ncnc2c1ncn2C[C@@H](CO)OCP(=O)(O)O,,MT-2,LAI,77.5 µM
Cc1cc(S(=O)(=O)Nc2nnc3c4ccccc4cnn23)c(S)cc1Cl,,CEM,4XAZT (AZT-resistant),80 µM
C=C1CN(S(=O)(=O)c2ccc(C)cc2)CCCN(CC(C)C)CCCN(S(=O)(=O)c2ccc(C)cc2)C1,,MT-4,NL4-3,19.3 µM
CN(C)CCCNC(=O)CCNC(=O)c1cc(NC(=O)c2nc(NC(=O)CCNC(=O)c3cc(NC(=O)c4nc(NC(=O)CCCNC(=O)c5cc(NC(=O)c6nc(NC(=O)CCNC(=O)c7cc(NC(=O)c8nccn8C)cn7C)cn6C)cn5C)cn4C)cn3C)cn2C)cn1C,,PBMC,SF162,>1 µM
CSCC[C@H](NC(=O)[C@H](CCO)N(Cc1ccccc1)C(=O)[C@H](Cc1ccccc1)NC(=O)OCc1ccccc1)C(=O)NC(C)(C)C,,CEM + CEM-SS,IIIB,0.245 µM
O=C(O)C(O)c1ccccc1,,Macrophage,BaL,<100 µg/mL
CCN1c2nc(C(F)(F)F)ccc2NC(=O)c2cc(CCOc3cc[n+]([O-])c4ccccc34)cnc21,RT-Y188L,C8166,,0.065 µM
CCN1c2ncc(CCOc3ccc(C(=O)O)c4c3CCN(S(C)(=O)=O)C4)cc2C(=O)N(C)c2cccnc21,,C8166,WT,<0.1 µM
CC(C)n1c(=O)c(O)c2n(c1=O)C(CCOCc1ccccc1)CN(Cc1ccc(F)cc1)C2=O,,MT-4,,<10 µM
CC(=O)OCc1c(C)c2ccc3c(c2oc1=O)[C@@H](OC(=O)C12CCC(C)(C(=O)O1)C2(C)C)[C@@H](OC(=O)C12CCC(C)(C(=O)O1)C2(C)C)C(C)(C)O3,,PBMC,IIIB,0.00012 µg/mL
Cc1cc(C)cc(S(=O)(=O)c2c(C(=O)/C=C/C(N)=O)[nH]c3ccc(Cl)cc23)c1,RT-Y181C,C8166,IIIB,0.6 µM
CC(C)(C)C1CCC(n2c(=O)c(O)c3n(c2=O)CCN(Cc2ccc(F)cc2)C3=O)CC1,,MT-4,,<10 µM

A second listing of 8 rows from above:

NC(=O)NO ; cells: H9 ; result: <200 µM
Nc1nc(NC2CC2)c2ncn([C@H]3C=C[C@@H](CO)C3)c2n1 ; cells: PBMC ; strain: KAB Clinical isolate ; result: >0.25 µM
COc1ccc(-c2scc3c(N4CC[C@@H](NC(C)=O)C4)nc(C)nc23)cc1OC ; cells: H9 ; result: >100 µM
Cc1cn([C@H]2C[C@H](N=[N+]=[N-])[C@@H](CO)O2)c(=O)[nH]c1=O ; cells: C8166 ; strain: IIIB ; result: 0.00194 µg/mL
CCN1c2ncc(CCOc3ccc(C(=O)O)c4c3CCN(C(=O)N(C)C)C4)cc2C(=O)N(C)c2cccnc21 ; cells: C8166 ; strain: WT ; result: <0.1 µM
C=C1CN(S(=O)(=O)c2ccc(C)cc2)CCCN(CC(C)C)CCCN(S(=O)(=O)c2ccc(C)cc2)C1 ; cells: MT-4 ; strain: NL4-3 ; result: 19.3 µM
Nc1nccc2c1ncn2[C@@H]1O[C@H](CO)[C@@H](O)[C@H]1O ; cells: PBMC ; strain: 18431 unpaired ; result: 0.0069 µM
CC(C)(C)NC(=O)[C@@H]1CCCN1C(=O)[C@@H](O)[C@H](Cc1ccccc1)NC(=O)[C@H](CC(N)=O)NC(=O)OCc1ccccc1 ; cells: MOLT-4 ; strain: C-3 ; result: ~10 µM